This note sets out measurements from paper PMC12079475, “Identification, validation, and characterization of approved and investigational drugs interfering with the SARS‐CoV‐2 endoribonuclease Nsp15” (Protein Science : A Publication of the Protein Society, 2025).

This data set in a line: Readout interference test: compound added after the enzymatic reaction ran to completion. The note with it: compound added after 1 h Nsp15/substrate reaction.

SMILES strings stand for the structures.

Turning to `COc1cccc2c1C(=O)c1c(O)c3c(c(O)c1C2=O)C[C@@](O)(C(C)=O)C[C@@H]3O[C@H]1C[C@H](N)[C@H](O)[C@H](C)O1` [daunorubicin], the autofluorescence result is “strong autofluorescence”.

In the case of `CO[C@@H]1[C@@H](OC(N)=O)[C@@H](O)[C@H](Oc2ccc3c(O)c(NC(=O)c4ccc(O)c(CC=C(C)C)c4)c(=O)oc3c2C)OC1(C)C` [novobiocin sodium], the autofluorescence entry is recorded as “strong autofluorescence”.
